PubChem BioAssay AID1259414 | Drosophila RNAi Screening Center – 2018
In all, the deposit lists about 24,000 reagents; this is a random part of those that have a named target and a result. In the full data, about 1,210 (5%) were called active. 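Inactive calls also include excluded dsRNAs with several or no targets, genes unexpressed in JW18, and well A1, regardless of score.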 Reagents against one gene are numbered here. A plus sign joins genes that one reagent is predicted to hit. Reagent sequences are not shown.

Screen: 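Fly genes that alter Wolbachia amount inside host cells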 (primary screen)
Cells: Drosophila JW18 cells infected with Wolbachia
Reagent: long dsRNA against Drosophila genes, 0.25 µg dsRNA per well of a 384-well plate
Duration: 5 days
Conditions: cells persistently infected with Wolbachia before knock-down; no added drug
Detection: 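Imaged fluorescence in situ signal for Wolbachia 23S rRNA per DAPI-counted host cell, given as a robust z-score within each plate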
Scale: Wolbachia per cell robust z: higher = more Wolbachia per host cell than the plate typical
Call rule: 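Active if absolute robust z reaches 1.5 in two or more of three replicates, leaving out multi- or no-target dsRNAs, genes unexpressed in JW18 and A1 wells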

gene knocked down | reagent no. | Wolbachia per cell robust z, rep 1 | Wolbachia per cell robust z, rep 2 | Wolbachia per cell robust z, rep 3 | outcome
Cam | 1 | -0.175 | 0.384 | -0.519 | inactive
Cam | 2 | -0.0141 | -0.325 | -0.0552 | inactive
CG6424 | 1 | 0.151 | 0.767 | 1.5 | inactive
CG6424 | 2 | -0.574 | -0.584 | -0.268 | inactive
CG32249 | 1 | 0.399 | -0.406 | 1.46 | inactive
CG32249 | 2 | 0.527 | -4.22 | 0.485 | inactive
CG32249 | 3 | 0.598 | -1.04 | 0.024 | inactive
CAH5 | 1 | 0.988 | -0.933 | 0.161 | inactive
CG16978 | 1 | -0.131 | -4.66 | 0.439 | inactive
CG10147 | 1 | -1.89 | -0.224 | -1.41 | inactive
CG10147 | 2 | 0.158 | 0.653 | 0.0226 | inactive
Rich | 1 | -0.0345 | 0.846 | -0.234 | inactive
Rich | 2 | -0.0158 | 1.47 | 0.371 | inactive
CG42704 | 1 | -0.323 | 0.0455 | -1.25 | inactive
stas | 1 | 0.304 | -0.347 | -0.686 | inactive
CG33695 + cana | 1 | -0.341 | 0.832 | -7.98 | inactive
phol | 1 | -1.15 | 0.135 | 0.687 | inactive
phol | 2 | -0.246 | -0.366 | 0.278 | inactive
side-III | 1 | -7.15 | 0.478 | -0.34 | inactive
side-III | 2 | -0.121 | 0.568 | -0.46 | inactive
side-III | 3 | -0.582 | -0.81 | -0.983 | inactive
side-III | 4 | 0.38 | -0.247 | 0.409 | inactive
CG14422 | 1 | 0.943 | 0.627 | 0.591 | inactive
CG14422 | 2 | 0.457 | 1.55 | -1.29 | inactive
dao | 1 | 0.72 | 0.78 | 0.0275 | inactive
dao | 2 | 0.445 | 0.479 | 0.312 | inactive
CG8132 | 1 | 1.17 | -1.22 | -1.44 | inactive
wdb | 1 | 0.479 | 0.663 | 0.712 | inactive
QIL1 | 1 | 0.06 | 0.89 | -0.501 | inactive
Neos | 1 | 0.486 | -0.265 | -2 | inactive
CG3165 | 1 | 0.823 | -1.68 | 0.322 | inactive
CG3199 | 1 | 0.636 | 0.354 | 0.015 | inactive
CG3199 | 2 | 0.305 | 0.108 | 1.12 | inactive
CG5026 | 1 | 0.505 | -0.0225 | -0.654 | inactive
CG1971 | 1 | 0.367 | 0.374 | 0.655 | inactive
CG1971 | 2 | 0.665 | -0.188 | -0.475 | inactive
Spn47C | 1 | -0.671 | -1.8 | 0.00675 | inactive
Spn47C | 2 | 0.77 | 0.145 | 0.449 | inactive
HUWE1 | 1 | 0.602 | 0.852 | -1.58 | inactive
Trx2 | 1 | -0.606 | -0.0871 | 0.245 | inactive
Trx2 | 2 | 0.314 | 0.682 | 0.148 | inactive
CG33234 | 1 | 0.596 | 0.417 | -0.0608 | inactive
CG7824 | 1 | -3.31 | 0.856 | 1.2 | inactive
Tnpo-SR | 1 | 1.07 | 0.00183 | 0.691 | inactive
CG32718 | 1 | -0.0982 | -0.187 | 0.276 | inactive
Ir48a | 1 | 0.26 | 1.07 | 0.645 | inactive
Taf9 | 1 | 0.491 | 1.37 | -0.291 | inactive
Taf9 | 2 | 0.175 | 2.25 | -1.06 | inactive
tapas | 1 | 1.15 | 1.3 | 0.0405 | inactive
Mer | 1 | -5.57 | -0.0658 | 0.13 | inactive
att-ORFB + DPCoAC | 1 | 0.52 | -1.05 | -1.44 | inactive
CG8319 | 1 | 0.642 | -2.27 | 0.908 | inactive
CG8319 | 2 | 1.09 | 0.934 | -0.24 | inactive
CG34167 | 1 | -0.249 | 1.4 | 1.04 | inactive
CG32450 | 1 | -0.589 | -0.512 | -1.15 | inactive
CG31493 | 1 | 0.916 | 0.236 | -0.17 | inactive
c-cup | 1 | -4.46 | -1 | -0.736 | inactive
Acp53C14a | 1 | -0.951 | 0.707 | 0.0335 | inactive
CG8854 | 1 | 0.481 | -0.4 | 0.733 | inactive
CG8854 | 2 | 0.735 | 0.967 | 0.327 | inactive
TER94 | 1 | 0.484 | -0.9 | 0.289 | inactive
TER94 | 2 | -0.557 | 0.65 | 0.682 | inactive
CG5938 | 1 | 0.172 | 1.03 | -0.254 | inactive
CG5938 | 2 | -1.05 | 0.614 | -1.08 | inactive
Polr1E | 1 | 0.14 | 0.242 | -0.0143 | inactive
Polr1E | 2 | 0.0739 | 0.203 | 0.226 | inactive
Menl-1 + Menl-2 | 1 | -0.171 | 0.836 | 0.423 | inactive
RpL13A | 1 | 1.87 | 3.19 | 1.92 | active
RpL13A | 2 | 1.91 | -2.61 | -0.21 | inactive

4 neighbouring reagents from above, for reference:
gene knocked down | reagent no. | Wolbachia per cell robust z, rep 1 | Wolbachia per cell robust z, rep 2 | Wolbachia per cell robust z, rep 3 | outcome
CG8854 | 1 | 0.481 | -0.4 | 0.733 | inactive
CG8854 | 2 | 0.735 | 0.967 | 0.327 | inactive
TER94 | 1 | 0.484 | -0.9 | 0.289 | inactive
TER94 | 2 | -0.557 | 0.65 | 0.682 | inactive
